Source: article PMC9176655, “Nebulized fusion inhibitory peptide protects cynomolgus macaques from measles virus infection” (Research Square, 2022)

Test: Safety and toxicology of nebulized peptide
Conditions: noninfected animals, days 0, 1, 2, 3, 6 and 28, HRC4 4 mg/kg n=5 vs saline n=3

## CC[C@H](C)[C@H](NC(=O)[C@H](C)NC(=O)[C@H](CC(N)=O)NC(=O)CNC(=O)[C@H](CC(C)C)NC(=O)[C@H](CC(N)=O)NC(=O)[C@@H](NC(=O)CNC(=O)[C@@H](NC(=O)[C@H](CC(=O)O)NC(=O)[C@H](CC(C)C)NC(=O)[C@H](CCCNC(=N)N)NC(=O)[C@H](CCC(=O)O)NC(=O)[C@H](CC(C)C)NC(=O)[C@H](CO)NC(=O)[C@@H](NC(=O)[C@@H]1CCCN1C(=O)[C@@H]1CCCN1)[C@@H](C)CC)C(C)C)[C@@H](C)O)C(=O)N[C@@H](C)C(=O)N[C@@H](CCCCN)C(=O)N[C@@H](CC(C)C)C(=O)N[C@@H](CCC(=O)O)C(=O)N[C@@H](CC(=O)O)C(=O)N[C@@H](C)C(=O)N[C@@H](CCCCN)C(=O)N[C@@H](CCC(=O)O)C(=O)N[C@@H](CC(C)C)C(=O)N[C@@H](CC(C)C)C(=O)N[C@@H](CCC(=O)O)C(=O)N[C@@H](CO)C(=O)N[C@@H](CO)C(=O)N[C@@H](CC(=O)O)C(=O)N[C@@H](CCC(N)=O)C(=O)N[C@H](C(=O)N[C@@H](CC(C)C)C(=O)N[C@@H](CCCNC(=N)N)C(=O)NCC(=O)N[C@@H](CO)C(=O)NCC(=O)N[C@@H](CO)C(=O)NCC(=O)N[C@@H](CSC1CC(=O)N(CCCC(=O)NCCOCCOCCOCCOCCC(=O)NCCN(CCNC(=O)CCOCCOCCOCCOCCNC(=O)CCCN2C(=O)CC(SC[C@H](NC(=O)CNC(=O)[C@H](CO)NC(=O)CNC(=O)[C@H](CO)NC(=O)CNC(=O)[C@H](CCCNC(=N)N)NC(=O)[C@H](CC(C)C)NC(=O)[C@@H](NC(=O)[C@H](CCC(N)=O)NC(=O)[C@H](CC(=O)O)NC(=O)[C@H](CO)NC(=O)[C@H](CO)NC(=O)[C@H](CCC(=O)O)NC(=O)[C@H](CC(C)C)NC(=O)[C@H](CC(C)C)NC(=O)[C@H](CCC(=O)O)NC(=O)[C@H](CCCCN)NC(=O)[C@H](C)NC(=O)[C@H](CC(=O)O)NC(=O)[C@H](CCC(=O)O)NC(=O)[C@H](CC(C)C)NC(=O)[C@H](CCCCN)NC(=O)[C@H](C)NC(=O)[C@@H](NC(=O)[C@H](C)NC(=O)[C@H](CC(N)=O)NC(=O)CNC(=O)[C@H](CC(C)C)NC(=O)[C@H](CC(N)=O)NC(=O)[C@@H](NC(=O)CNC(=O)[C@@H](NC(=O)[C@H](CC(=O)O)NC(=O)[C@H](CC(C)C)NC(=O)[C@H](CCCNC(=N)N)NC(=O)[C@H](CCC(=O)O)NC(=O)[C@H](CC(C)C)NC(=O)[C@H](CO)NC(=O)[C@@H](NC(=O)[C@@H]3CCCN3C(=O)[C@@H]3CCCN3)[C@@H](C)CC)C(C)C)[C@@H](C)O)[C@@H](C)CC)[C@@H](C)CC)C(=O)O)C2=O)CCO[C@H]2CC[C@@]3(C)C(=CC[C@H]4[C@@H]5CC[C@H]([C@H](C)CCCC(C)C)[C@@]5(C)CC[C@@H]43)C2)C1=O)C(=O)O)[C@@H](C)CC (stereo partly shown) [HRC4]
  Hematological and biochemical parameters in blood: did not show significant variations between groups
